In this data set the test system is whole blood. Put plainly: Example 4: visual inspection of reaction system, types and concentrations of detergents (hemolysis, adhesion, aggregation). Particulars: heparin whole blood stored overnight at 4° C.
[1] abbreviates: detergent 0.01% upon mixing of whole blood.
[2] abbreviates: detergent 0.1% upon mixing of whole blood.
The mark [3] stands for this setting: detergent 0.5% upon mixing of whole blood.
[4] abbreviates: detergent 1% upon mixing of whole blood.
Setting [5] is: detergent 10% upon mixing of whole blood.

Turning to `O=S(=O)([O-])CCC[n+]1ccccc1`, the “Adhesion of magnetic particles to reaction vessel wall” value is, setting by setting: under setting [1], “Present”; under setting [2], “Present”; under setting [3], “Absent”; under setting [4], “Absent”; under setting [5], “Absent”. Also, the “Aggregation of magnetic particles” value was “Present” under setting [1]; “Present” under setting [2]; “Present” under setting [3]; “Absent” under setting [4]; “Absent” under setting [5].
